Fold change is the IC50 on the isolate divided by the IC50 on a reference virus; 1 = unchanged, higher = more resistant. Changes are given against the subtype B consensus. No active / inactive call. The values were gathered from many studies (numbered anew) with different assays, which the source does not name. Most viruses are clinical isolates; some are laboratory strains or clones with known resistance changes. Isolates with mixed residues are left out; stretches that were not sequenced show no change. Round top values that many isolates share are read here as limits; other very high values and 0.1 may be limits too. For part of these data: The protease changes I3V and N37S, insertions and deletions cannot be read from the source.
Key:
zidovudine = compound: Cc1cn([C@H]2C[C@H](N=[N+]=[N-])[C@@H](CO)O2)c(=O)[nH]c1=O [zidovudine]; assay: fold change of IC50 against reference virus; higher = more resistant
Description: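 Cell-culture drug susceptibility tests of virus bearing the reverse transcriptase of each isolate, gathered from many studies.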

saquinavir = compound: CC(C)(C)NC(=O)[C@@H]1C[C@@H]2CCCC[C@@H]2CN1C[C@@H](O)[C@H](Cc1ccccc1)NC(=O)[C@H](CC(N)=O)NC(=O)c1ccc2ccccc2n1 [saquinavir]; assay: fold change of IC50 against reference virus; higher = more resistant; Cell-culture drug susceptibility tests of virus bearing the protease of each isolate, gathered from many studies.
indinavir = compound: CC(C)(C)NC(=O)[C@@H]1CN(Cc2cccnc2)CCN1C[C@@H](O)C[C@@H](Cc1ccccc1)C(=O)N[C@H]1c2ccccc2C[C@H]1O [indinavir]; assay: as above
ritonavir = compound: CC(C)c1nc(CN(C)C(=O)N[C@H](C(=O)N[C@@H](Cc2ccccc2)C[C@H](O)[C@H](Cc2ccccc2)NC(=O)OCc2cncs2)C(C)C)cs1 [ritonavir]; assay: as above
nelfinavir = compound: Cc1c(O)cccc1C(=O)N[C@@H](CSc1ccccc1)[C@H](O)CN1C[C@H]2CCCC[C@H]2C[C@H]1C(=O)NC(C)(C)C [nelfinavir]; assay: as above

| Test System | fold change of IC50 against reference virus (zidovudine) | fold change of IC50 against reference virus (saquinavir) | fold change of IC50 against reference virus (indinavir) | fold change of IC50 against reference virus (ritonavir) | fold change of IC50 against reference virus (nelfinavir) |
| --- | --- | --- | --- | --- | --- |
| HIV-1 isolate 4 (reverse transcriptase changes: M41L K122E F214L A272P K277R A376T A400T D460N S468T H483Y K512Q S519N, study 3) | 4 |  |  |  |  |
| HIV-1 isolate 27 (reverse transcriptase changes: M41L D67N K70R W88G K122E F214L T215Y A272P K277R M357T A376T A400T N447S D460N S468T S519N, study 103) | 0.4 |  |  |  |  |
| HIV-1 isolate 45 (reverse transcriptase changes: M41L K122E L210W F214L A272P K277R A376T A400T D460N S468T H483Y K512Q S519N, study 103) | 5.2 |  |  |  |  |
| HIV-1 isolate 68 (reverse transcriptase changes: K122E F214L T215Y A272P K277R A376T A400T D460N S468T H483Y K512Q S519N, study 3) | 16 |  |  |  |  |
| HIV-1 isolate 108 (reverse transcriptase changes: M41L D67N K70R K122E F214L T215F K219Q A272P K277R A376T A400T D460N S468T H483Y K512Q S519N, study 143) | 51 |  |  |  |  |
| HIV-1 isolate 109 (reverse transcriptase changes: E6D M41L E44D D67N K70R D121H K122E I135T T165I D177E L210W R211K T215Y T286P I293V E297K T369I A376T T386I K390R A400T, study 103) | 240 |  |  |  |  |
| HIV-1 isolate 169 (reverse transcriptase changes: M41L I135T E204K L210W T215Y I293V E297K D324P I329L A360V K431N V435A D460N S468P L491S, study 103) | 420 |  |  |  |  |
| HIV-1 isolate 170 (reverse transcriptase changes: K122E L210W F214L T215Y A272P K277R A376T A400T D460N S468T H483Y K512Q S519N, study 126) | 27 |  |  |  |  |
| HIV-1 isolate 186 (reverse transcriptase changes: M41L D67N K70R K122E F214L T215Y K219Q A272P K277R A376T A400T D460N S468T H483Y K512Q S519N, study 103) | 56 |  |  |  |  |
| HIV-1 isolate 215 (reverse transcriptase changes: M41L I135T E204K L210W T215Y I293V E297K D324P I329L A360V K431N V435A D460N S468P L491S, study 103) | 400 |  |  |  |  |
| HIV-1 isolate 230 (reverse transcriptase changes: D121H K122E I142V D177E G196E T215Y V245K, study 48) | 190 |  |  |  |  |
| HIV-1 isolate 233 (reverse transcriptase changes: D67N K70R L74V K122E F214L T215Y K219Q A272P K277R M357T A376T A400T N447S D460N S468T S519N, study 81) | 6.3 |  |  |  |  |
| HIV-1 isolate 258 (reverse transcriptase changes: D17N R83K T286A E297K D324N I329L A360T K431N D460N S468P L491S L517I, study 103) | 1 |  |  |  |  |
| HIV-1 isolate 290 (reverse transcriptase changes: M41L D67N K70R K122E F214L T215Y A272P K277R M357T, study 34) | 200 |  |  |  |  |
| HIV-1 isolate 293 (reverse transcriptase changes: M41L K122E L210W F214L T215Y A272P K277R A376T A400T D460N S468T H483Y K512Q S519N, study 126) | 107 |  |  |  |  |
| HIV-1 isolate 301 (reverse transcriptase changes: K102Q S162C T215Y L234I K277R, study 1) | 1 |  |  |  |  |
| HIV-1 isolate 310 (reverse transcriptase changes: M41L K122E M184V F214L T215Y A272P K277R A376T A400T D460N S468T H483Y K512Q S519N, study 126) | 2 |  |  |  |  |

| Test System | fold change of IC50 against reference virus (zidovudine) | fold change of IC50 against reference virus (saquinavir) | fold change of IC50 against reference virus (indinavir) | fold change of IC50 against reference virus (ritonavir) | fold change of IC50 against reference virus (nelfinavir) |
| --- | --- | --- | --- | --- | --- |
| HIV-1 isolate 358 (reverse transcriptase changes: D67N K70R K122E Q161L F214L T215Y K219Q A272P K277R M357T A376T A400T N447S D460N S468T S519N, study 103) | 2 |  |  |  |  |
| HIV-1 isolate 402 (reverse transcriptase changes: K70R K122E F214L A272P K277R A376T A400T D460N S468T H483Y K512Q S519N, study 143) | 8 |  |  |  |  |
| HIV-1 isolate 418 (reverse transcriptase changes: M41L K122E F214L T215Y A272P K277R A376T A400T D460N S468T H483Y K512Q S519N, study 126) | 67 |  |  |  |  |
| HIV-1 isolate 421 (reverse transcriptase changes: M41L K70R K122E F214L T215Y A272P K277R A376T A400T D460N S468T H483Y K512Q S519N, study 143) | 34 |  |  |  |  |
| HIV-1 isolate 423 (reverse transcriptase changes: M41L K122E F214L A272P K277R A376T A400T D460N S468T H483Y K512Q S519N, study 126) | 4 |  |  |  |  |
| HIV-1 isolate 430 (reverse transcriptase changes: M41L K122E F214L A272P K277R A376T A400T D460N S468T H483Y K512Q S519N, study 103) | 1.4 |  |  |  |  |
| HIV-1 isolate 1514 (protease changes: I13V I15N K20I M36I R41K H69K L89M, study 114) |  | 0.7 | 0.5 | 0.4 | 0.6 |
| HIV-1 isolate 1517 (protease changes: K14R M46I I54V A71V V82A, study 38) |  | 2 | 3 | 7 | 2 |
| HIV-1 isolate 1544 (protease changes: I13V E35D M36I R41K L63P I64V V77I, study 54) |  | 1 | 1 | 2.8 | 2.7 |
| HIV-1 isolate 1546 (protease changes: I13V I15V M36I I62V L63P K70R, study 54) |  | 0.6 | 0.8 | 1.3 | 1.5 |
| HIV-1 isolate 1577 (protease changes: L10I K14R I15V E35D R41K L63P V77I I93L, study 54) |  | 0.8 | 0.8 | 0.9 | 1.2 |
| HIV-1 isolate 1592 (protease changes: none, study 139) |  | 1 | 1 | 1 | 1 |
| HIV-1 isolate 1609 (protease changes: L10F K20T D30N L33F M36I M46I I54L L63P A71V V77I N88D L90M, study 66) |  | 45 | 6.8 | 31 | 550 |
| HIV-1 isolate 1627 (protease changes: I13V R41K I64V H69Y, study 15) |  | 0.6 | 0.7 | 0.5 | 0.8 |
| HIV-1 isolate 1628 (protease changes: D30N L63P V77I N88D L90M, study 66) |  | 9.3 | 5.3 | 3.4 | 57 |
| HIV-1 isolate 1646 (protease changes: D30N M46I A71V, study 61) |  | 0.3 | 0.6 | 0.8 | 30.6 |

From the supplement of paper PMC3578754
